Human monoclonal antibodies against the spike receptor-binding domain (heavy:light variable regions). IC50 against pseudoviruses bearing the spike of naturally observed variants; lower = stronger; >10 µg/ml means not reached at the top dose. No active / inactive call. The stated detection limit is 0.0005 µg/ml; values near or below 0.001 µg/ml lie at the floor of the assay.
B1: BD56-940 (protein)
chain 1: QVQLVQSGAEVRKPGASVKVSCKASGYRFSSYGITWVRQAPGQGLQWVGWISAYNGDADYAQKVQGRVTMTTDTSTSTAYMELRSLRSDDTAVYYCARDTGSSGYYHGMDVWGQGTTVTVSS
chain 2: EIVLTQSPDTLSLSPGERATLSCRASQSVSSYLAWYQQKPGQAPRLLIYDASNRATGTPARFSGSGSGTDFTLTISNLEPEDFAVYYCQQRINWPPETFGQGTTVEIK
B2: BD56-934 (protein)
chain 1: QVQLVQSGAEVKKPGSSVKVSCKASGGTFSSDALRWVRQAPGQGLEWMGGIIPIFGTTSYAQKFQGRVTFTADESTSTAYMELSSLTSEDTAVYYCAKDSRTSPLYGMDVWGQGTTVTVSS
chain 2: DIQMTQSPSSLSASVGDRVTITCRASQTISRYLNWYQQVSGKAPKLLIYAASSLQSGVSSRFSGSGSGTDFTLTISSLQPEDFATYYCQQSYSTPLTFGGGTKVEIK
B3: BD56-942 (protein)
chain 1: EVQLVESGGGLVKPGGSLRLSCAASGFTFGSYSMNWVRQAPGKGLEWVSFISSSGTYIKYTDSLKGRVTISRDNAKNSLNLQMNSLRVEDTAVYFCARVTWGCDSTGCHNYYAMDVWGQGTTVTVSS
chain 2: QSALTQPRSVSGSPGQSVTISCTGTSSDVGSYNYISWYQHHPGKAPKLMIYDVNKRPSGVPDRFSGSKSGNTASLTNSGLQAEDEADYYCCSYAGNYTFVFGTGTTVTVL
B4: BD56-939 (protein)
chain 1: QVQLVQSGAEVKKPGASVKVSCKAPIDTFTTYYLHWVRQAPGQGLEWMGIMNPDGGSTSYAKKFQHRVTMTRDTSSSTVYLELRSLRSDDTGVYYCARGGLVPDATEPFDSWGQGTLVTVSS
chain 2: DIQMTQSPSTLSASVGDRVTITCRASQSVSNWLAWYQQKPGKAPKLLIYKASILETGVPSRFSGSGSGTQFSLTISSLQPDDFATYYCQQYNRYLYTFGQGTKLEIK
B5: BD56-945 (protein)
chain 1: QLQLQESGPGLVKPSETLSLTCTVSGGSISSSNYYWGWIRQPPGKGLEWIGSIFYTGITYYNPSLKSRVTISVDTSKNQFSLKLSSVPAADTAVYYCARHYRHIAAADYWGQGTLVTVSS
chain 2: QSALTQPASVSGSPGQSITISCTGTSSDVGSYNLVSWYQQHPGRAPKLMIYEVSERPSGVSDRFSGSKSGNTASLSISGLQAEDEADYYCCSYVGTSTFYVFGTGTKVTVV
B6: BD56-949 (protein)
chain 1: QVQLVQSGAEVKKPGASVKVSCKASGYSFISFAMHWVRQAPGQRLEWMGWINPGTRDTEYSQKFQGRVTFTRDTSASTAYMELSSLRSEDTAVYYCARDRKWNGNYYYAMDVWGQGTTVTVSS
chain 2: DIQMTQSPSTLSASVGDRVTITCRASQTISSWLAWYQQKPGKAPNLLIYKASSLESGVPSRFSGSGTGTEFTLTISTLQPDDFATYYCQQYNSYPWTFGQGTKVEIK
B7: BD56-935 (protein)
chain 1: QVQLQESGPGLVKPSGTLSLTCAVSGGSISGPHWWSWVRQSPGKGLEWLGEIFHTGSTNYNPSLKSRVTISVDKSKNQFSLKLSSVTAADTAVYYCARSTGFLDYWGQGTLVIVSS
chain 2: DIQMTQSPSSLSASVGDRVSITCRASQGISNSLAWYQQKPGKAPKVLLYEASTLESGVPSRFSGSGSGTDFTLTISSLQPEDFATYYCQQYYSIRTFGQGTKVETK

biological target: SARS-CoV-2 Omicron BA.1 spike pseudovirus; experiment: pseudovirus neutralization IC50; higher = weaker neutralization
Experimental: (§1)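 Single-round VSV luciferase pseudovirus mixed with antibody dilutions for 1 h and put on Huh-7 cells for about a day; IC50 from the dose curve.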

Question: How did the “pseudovirus neutralization IC50” value turn out when B1 was run?
Answer: 0.569 µg/mL

Question: How did the “pseudovirus neutralization IC50” value turn out when B2 was run?
Answer: 0.287 µg/mL

Question: For B3, which “pseudovirus neutralization IC50” value is on record?
Answer: 0.0594 µg/mL

Question: B4 was tested. Which “pseudovirus neutralization IC50” value did it give?
Answer: > 10 µg/mL

Question: Which “pseudovirus neutralization IC50” value does the source give for B5 here?
Answer: > 10 µg/mL

Question: How did the “pseudovirus neutralization IC50” value turn out when B6 was run?
Answer: 0.0366 µg/mL

Question: B7 was tested. Which “pseudovirus neutralization IC50” value did it give?
Answer: 0.0428 µg/mL

biological target: SARS-CoV-2 Omicron BA.2 spike pseudovirus; experiment: as above
Experimental: as §1

Question: B1 was tested. Which “pseudovirus neutralization IC50” value did it give?
Answer: 0.327 µg/mL

Question: With B2 as the binder, how does the “pseudovirus neutralization IC50” value read?
Answer: 0.198 µg/mL

Question: For B3, which “pseudovirus neutralization IC50” value is on record?
Answer: 0.0262 µg/mL

Question: B4 was tested. Which “pseudovirus neutralization IC50” value did it give?
Answer: > 10 µg/mL

Question: For B5, which “pseudovirus neutralization IC50” value is on record?
Answer: > 10 µg/mL

Question: With B6 as the binder, how does the “pseudovirus neutralization IC50” value read?
Answer: 0.031 µg/mL

Question: Which “pseudovirus neutralization IC50” value does the source give for B7 here?
Answer: 0.0461 µg/mL

biological target: SARS-CoV-2 Omicron BA.2.75 spike pseudovirus; experiment: as above
Experimental: as §1

Question: How did the “pseudovirus neutralization IC50” value turn out when B1 was run?
Answer: 1.63 µg/mL

Question: Which “pseudovirus neutralization IC50” value does the source give for B2 here?
Answer: 0.173 µg/mL

Question: For B3, which “pseudovirus neutralization IC50” value is on record?
Answer: 0.0394 µg/mL

Question: Which “pseudovirus neutralization IC50” value does the source give for B4 here?
Answer: > 10 µg/mL

Question: With B5 as the binder, how does the “pseudovirus neutralization IC50” value read?
Answer: > 10 µg/mL

Question: Which “pseudovirus neutralization IC50” value does the source give for B6 here?
Answer: 0.0353 µg/mL

Question: Which “pseudovirus neutralization IC50” value does the source give for B7 here?
Answer: 0.0386 µg/mL

biological target: SARS-CoV-2 Omicron BA.5 spike pseudovirus; experiment: as above
Experimental: as §1

Question: Which “pseudovirus neutralization IC50” value does the source give for B1 here?
Answer: > 10 µg/mL

Question: For B2, which “pseudovirus neutralization IC50” value is on record?
Answer: > 10 µg/mL

Question: B3 was tested. Which “pseudovirus neutralization IC50” value did it give?
Answer: 0.036 µg/mL

Question: How did the “pseudovirus neutralization IC50” value turn out when B4 was run?
Answer: > 10 µg/mL

Question: With B5 as the binder, how does the “pseudovirus neutralization IC50” value read?
Answer: > 10 µg/mL

Question: For B6, which “pseudovirus neutralization IC50” value is on record?
Answer: > 10 µg/mL

Question: For B7, which “pseudovirus neutralization IC50” value is on record?
Answer: 4.56 µg/mL

biological target: SARS-CoV-2 Omicron BQ.1.1 spike pseudovirus; experiment: as above
Experimental: as §1

Question: B1 was tested. Which “pseudovirus neutralization IC50” value did it give?
Answer: > 10 µg/mL

Question: For B2, which “pseudovirus neutralization IC50” value is on record?
Answer: > 10 µg/mL

Question: For B3, which “pseudovirus neutralization IC50” value is on record?
Answer: 1.12 µg/mL

Question: For B4, which “pseudovirus neutralization IC50” value is on record?
Answer: > 10 µg/mL

Question: With B5 as the binder, how does the “pseudovirus neutralization IC50” value read?
Answer: > 10 µg/mL

Question: With B6 as the binder, how does the “pseudovirus neutralization IC50” value read?
Answer: > 10 µg/mL

Question: With B7 as the binder, how does the “pseudovirus neutralization IC50” value read?
Answer: 4.17 µg/mL

biological target: SARS-CoV-2 Omicron XBB spike pseudovirus; experiment: as above
Experimental: as §1

Question: Which “pseudovirus neutralization IC50” value does the source give for B1 here?
Answer: 2.79 µg/mL

Question: How did the “pseudovirus neutralization IC50” value turn out when B2 was run?
Answer: 1.34 µg/mL

Question: For B3, which “pseudovirus neutralization IC50” value is on record?
Answer: 1.66 µg/mL

Question: B4 was tested. Which “pseudovirus neutralization IC50” value did it give?
Answer: > 10 µg/mL

Question: Which “pseudovirus neutralization IC50” value does the source give for B5 here?
Answer: > 10 µg/mL

Question: How did the “pseudovirus neutralization IC50” value turn out when B6 was run?
Answer: 2.65 µg/mL

Question: For B7, which “pseudovirus neutralization IC50” value is on record?
Answer: 3.8 µg/mL

biological target: SARS-CoV-2 early D614G spike pseudovirus; experiment: as above
Experimental: as §1

Question: How did the “pseudovirus neutralization IC50” value turn out when B1 was run?
Answer: 0.81 µg/mL

Question: How did the “pseudovirus neutralization IC50” value turn out when B2 was run?
Answer: 0.689 µg/mL

Question: For B3, which “pseudovirus neutralization IC50” value is on record?
Answer: 0.0355 µg/mL

Question: How did the “pseudovirus neutralization IC50” value turn out when B4 was run?
Answer: > 10 µg/mL

Question: B5 was tested. Which “pseudovirus neutralization IC50” value did it give?
Answer: > 10 µg/mL

Question: For B6, which “pseudovirus neutralization IC50” value is on record?
Answer: 0.0528 µg/mL

Question: B7 was tested. Which “pseudovirus neutralization IC50” value did it give?
Answer: 0.00212 µg/mL
